Pooled drug test results. Numbers come from NIAID ChemDB, via PubChem.

Common to all: growth or infection tests

ECn is the concentration giving n% inhibition of infection, replication or growth. Blank or dashed fields: not listed here. MIC50, MIC90 and the like: level of inhibition, or share of isolates inhibited. Zones are inhibition diameters on agar. Rows are shuffled and stem from different studies.

SMILES | agent | strain | changes | read by | conditions | measure | dose | result
C/C=C(C)/C=C(\C)[C@@H](O)[C@H](C)[C@@H](O)[C@@H]1OC(=O)/C(CCCCCC)=C/c2csc(n2)[C@H](C)[C@@H](O)C[C@H](O)/C=C/C=C\C[C@@H]1O | Mycobacterium luteus |  |  | visual reading |  | MIC |  | 32 µg/mL
O=C(NCc1ccc(N2CCN(Cc3ccccc3)CC2)nc1)c1ccc([N+](=O)[O-])o1 | Mycobacterium bovis | BCG |  |  |  | MIC |  | 0.0015 µg/mL
CCCCCC/C1=C\c2csc(n2)[C@H](C)[C@@H](O)C[C@H](O)/C=C/C=C\C[C@H](O)[C@H]([C@H](O)[C@@H](C)/C=C(C)/C=C(\C)C(C)OC)OC1=O | Mycobacterium luteus |  |  | visual reading |  | MIC |  | 16 µg/mL
COc1ccc(-c2nn(-c3ccccc3)cc2C2C3=C(NC(C)(c4cc(O)c(I)cc4Cl)NC3=O)Oc3c2c(C)nn3-c2ccccc2)cc1 | Mycobacterium phlei | NCIM 2240 |  | agar diffusion / agar |  | MIC |  | 70 µg/mL
CO[C@H]1/C=C/O[C@@]2(C)Oc3c(C)c(O)c4c(=O)c(c5oc6cc(N7CCN(CC(C)C)CC7)cc(=O)c6nc5c4c3=C2O)NC(=O)/C(C)=C\C=C\[C@H](C)[C@H](O)[C@@H](C)[C@@H](O)[C@@H](C)[C@H](OC(C)=O)[C@@H]1C | Mycobacterium avium | 3010 |  |  |  | MBC |  | >0.125 µg/mL
O=C(O)c1cn(C2CC2)c2c(Cl)c(N3CCNCC3)c(F)cc2c1=O | Mycobacterium avium complex | 14 strains |  |  |  | MIC50 |  | 2 µg/mL
O=[N+]([O-])c1ccc(C2=NOC(c3ccc(N4CCN(Cc5ccccc5)CC4)cc3)C2)o1 | Mycobacterium bovis | BCG |  |  |  | MIC |  | 0.0008 µg/mL
CCn1cc(C(=O)O)c(=O)c2ccc(-c3ccncc3)cc21 | Mycobacterium avium intracellulare |  |  |  |  | MIC |  | 68.8 µg/mL
CC[C@@H](C(=O)[C@@H](C)[C@@H](O)[C@H](C)[C@@H]1O[C@@H]([C@@H](CC)C(=O)O)CC[C@@H]1C)[C@H]1O[C@@]2(C=C[C@@H](O)[C@@]3(CC[C@@](C)([C@H]4CC[C@](O)(CC)[C@H](C)O4)O3)O2)[C@H](C)C[C@@H]1C | Mycobacterium aurum |  | C410 deletion | resazurin |  | MIC |  | 0.08 µg/mL
O=C(NCc1ccc(N2CCN(Cc3ccccc3)CC2)cc1)c1ccc([N+](=O)[O-])o1 | Mycobacterium bovis | BCG |  |  |  | MIC |  | 0.012 µg/mL
CCn1cc(C(=O)O)c(=O)c2cc(F)c(-n3cccc3)cc21 | Mycobacterium avium intracellulare |  |  |  |  | MIC |  | 89.1 µg/mL
CO[C@@H]1C[C@@H](C[C@H]2CC[C@H](C)[C@H]([C@@H](C)C(=O)O)O2)O[C@]2(O[C@](C)([C@H]3CC[C@@](C)([C@@H]4O[C@@H]([C@H]5O[C@@](O)(CO)[C@H](C)C[C@@H]5C)C[C@@H]4C)O3)C[C@H]2C)[C@@H]1C | Mycobacterium abscessus | L948 |  | resazurin |  | MIC |  | >20 µg/mL
Cc1nn(-c2ccccc2)c2c1C(c1cn(-c3ccccc3)nc1-c1ccc(Cl)cc1)C1=C(NC(C)(c3cc(O)ccc3Cl)NC1=O)O2 | Mycobacterium phlei | NCIM 2240 |  | agar diffusion / agar |  | zone | 1 mg/mL | 3.5 mm
C/C=C(C)\C=C(/C)[C@@H](O)[C@H](C)[C@@H](O)[C@@H]1OC(=O)/C(CCCCCC)=C/c2csc(n2)[C@H](C)[C@@H](O)C[C@H](O)/C=C/C=C\C[C@@H]1O | Mycobacterium luteus |  |  | visual reading |  | MIC |  | 32 µg/mL
NNC(=O)c1ccncc1 | Mycobacterium aurum | A+ |  |  |  | EC90 |  | 0.03 µg/mL
C[C@H]1COC2(CCN(c3nc(=O)c4cc(C(F)(F)F)cc(C(=O)O)c4s3)CC2)O1 | Mycobacterium marinum | Strain M |  | resazurin |  | MIC99 |  | 0.0007 µg/mL
CN1CCN(c2c(F)cc3c(=O)c(C(=O)O)cn(CCF)c3c2F)CC1 | Mycobacterium avium intracellulare |  |  |  |  | MIC |  | 4.7 µg/mL
CO[C@H]1/C=C/O[C@@]2(C)Oc3c(C)c(O)c4c(O)c(c(/C=N/N5CCN(C)CC5)c(O)c4c3C2=O)NC(=O)/C(C)=C\C=C\[C@H](C)[C@H](O)[C@@H](C)[C@@H](O)[C@@H](C)[C@H](OC(C)=O)[C@@H]1C | Mycobacterium aurum | A+ |  |  |  | EC50 |  | <0.57 µg/mL
Cc1nn(-c2ccccc2)c2c1C(c1cn(-c3ccccc3)nc1-c1ccc(F)cc1)C1=C(NC(C)(c3cc(O)c(Cl)c(O)c3)NC1=O)O2 | Mycobacterium phlei | NCIM 2240 |  | agar diffusion / agar |  | zone | 0.1 mg/mL | 3.4 mm
CN1CCN(c2c(F)cc3c(=O)c(C(=O)O)cn4c3c2SCC4)CC1 | Mycobacterium avium intracellulare |  |  |  |  | MIC |  | 31 µg/mL
C=C1C(=O)N[C@@H](C)C(=O)N[C@H](CC(C)C)C(=O)N[C@H](C(=O)O)[C@H](C)C(=O)N[C@H](CCCN=C(N)N)C(=O)N[C@@H](/C=C/C(C)=C/[C@H](C)[C@H](Cc2ccccc2)OC)[C@@H](C)C(=O)N[C@@H](C(=O)O)CCC(=O)N1C | Mycobacterium chelonae |  |  | resazurin |  | MIC |  | 2.15 µM
CCOC(=O)C#CC(=O)OCC | Mycobacterium bovis BCG | 1173P2 |  | resazurin | 24 h | MIC |  | 7.75 µg/mL
CO[C@H]1/C=C/O[C@@]2(C)Oc3c(C)c(O)c4c(O)c(c5c(c4c3C2=O)NC2(CCN(CC(C)C)CC2)N=5)=NC(=O)/C(C)=C\C=C\[C@H](C)[C@H](O)[C@@H](C)[C@@H](O)[C@@H](C)[C@H](OC(C)=O)[C@@H]1C | Mycobacterium avium intracellulare | 58 isolates |  |  |  | MIC90 |  | 0.8 µg/mL
COc1cc(Cc2cnc(N)nc2N)cc(OC)c1OCCCNc1ccc(S(=O)(=O)c2ccc(N)cc2)cc1 | Mycobacterium ulcerans | Isolate 94-539 |  |  |  | MBC |  | 4 µg/mL
CCN(CC)c1nc2c(s1)c1c(O)c3c(O)c(C)c4c(c32)C(=O)[C@@](C)(O/C=C/[C@H](OC)[C@@H](C)[C@@H](OC(C)=O)[C@H](C)[C@H](O)[C@H](C)[C@@H](O)[C@@H](C)/C=C/C=C(/C)C(=O)N1)O4 | Mycobacterium avium | 9141 |  |  |  | MBC |  | 8 µg/mL
CO[C@H]1/C=C/O[C@@]2(C)Oc3c(C)c(O)c4c(O)c(c5c(c4c3C2=O)NC2(CCN(CC(C)C)CC2)N=5)=NC(=O)/C(C)=C\C=C\[C@H](C)[C@H](O)[C@@H](C)[C@@H](O)[C@@H](C)[C@H](OC(C)=O)[C@@H]1C | Mycobacterium avium complex | 2212 |  |  |  | MBC |  | 16 µg/mL
COc1cc(Cc2cnc(N)nc2N)cc(OC)c1OC | Mycobacterium ulcerans | Isolate 94-539 |  |  |  | MIC |  | >16 µg/mL
C[C@@H]1CN(c2c(F)c(N)c3c(=O)c(C(=O)O)cn(C4CC4)c3c2F)C[C@H](C)N1 | Mycobacterium avium intracellulare |  |  |  |  | MIC |  | 0.4 µg/mL
C#CCCO | Mycobacterium bovis BCG | 1173P2 |  | resazurin | 48 h | MIC |  | 125 µg/mL
COc1c(N2CC(C)NC(C)C2)c(F)cc2c(=O)c(C(=O)O)cn(C3CC3)c12 | Mycobacterium avium complex | 14 strains |  |  |  | MIC50 |  | 0.5 µg/mL
C#CCCCCCCCC | Mycobacterium bovis BCG | 1173P2 |  | resazurin | 48 h | MIC |  | 125 µg/mL
CCC1CN(c2c(F)cc3c(=O)c(C(=O)O)cn(C4CC4)c3c2F)CCN1 | Mycobacterium avium complex | 14 strains |  |  |  | MIC50 |  | 2 µg/mL
NC1CCN(c2c(F)cc3c(=O)c(C(=O)O)cn(C4CC4)c3c2Cl)C1 | Mycobacterium avium intracellulare |  |  |  |  | MIC |  | 5 µg/mL
O=C(O)c1cn(C2CC2)c2nc(N3CCNCC3)c(F)cc2c1=O | Mycobacterium avium complex | 14 strains |  |  |  | MIC90 |  | 8 µg/mL
C#CC(CCCCC)OC(C)=O | Mycobacterium bovis BCG | 1173P2 |  | resazurin | 24 h | MIC |  | 125 µg/mL
CCC1CN(c2nc3c(cc2F)c(=O)c(C(=O)O)cn3-c2ccc(F)cc2F)CCN1 | Mycobacterium avium complex | 14 strains |  |  |  | MIC50 |  | ≥32 µg/mL
Cc1nn(-c2ccccc2)c2c1C(c1cn(-c3ccccc3)nc1-c1ccc(F)cc1)C1=C(NC(C)(c3cc(O)cc(O)c3)NC1=O)O2 | Mycobacterium phlei | NCIM 2240 |  | agar diffusion / agar |  | zone | 1 mg/mL | 2.2 mm

For reference, 3 entries again:

SMILES,agent,strain,changes,read by,conditions,measure,dose,result
CN1CCN(c2c(F)cc3c(=O)c(C(=O)O)cn(CCF)c3c2F)CC1,Mycobacterium avium intracellulare,,,,,MIC,,4.7 µg/mL
CCN(CC)c1nc2c(s1)c1c(O)c3c(O)c(C)c4c(c32)C(=O)[C@@](C)(O/C=C/[C@H](OC)[C@@H](C)[C@@H](OC(C)=O)[C@H](C)[C@H](O)[C@H](C)[C@@H](O)[C@@H](C)/C=C/C=C(/C)C(=O)N1)O4,Mycobacterium avium,9141,,,,MBC,,8 µg/mL
CCOC(=O)C#CC(=O)OCC,Mycobacterium bovis BCG,1173P2,,resazurin,24 h,MIC,,7.75 µg/mL